Laboratory results: PubChem BioAssay AID504761 (Drosophila RNAi Screening Center, 2011)
The deposit covers about 22,000 reagents; this is an unselected part of those that have a named target and a result. Of all reagents, 116 (0.52%) are marked active. 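Calls depend on retest data that are not deposited; infection was ranked per plate without normalising between plates; the unit of the infection score is not given.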 Raw values vary from plate to plate and are shown uncorrected. A number with no mark means an inactive call. The record does not give: the amount of reagent, the time to read-out.

- Test: 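Insect host genes that dengue virus relies on to spread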 (primary screen)
- Cell system: D.Mel-2 cells from Drosophila
- Reagent: long dsRNA against Drosophila genes
- Conditions: infection with dengue virus type 2; dose and infection time not stated
- Detection: 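Per well on two replicate plates, imaging gave the percent of cells positive for viral envelope protein, ranked by infection, and a nuclear count of cells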
- Direction: infection score: higher = more virus-infected cells; cell count: higher = more cells in the well
- Hit rule: 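Low infection ranks in the two replicates (chance level up to 0.065) followed by a retest with a 1.5-fold or larger significant decrease, p below 0.05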
- Calls: active = confirmed: knock-down lowers infection; inactive = not picked or not confirmed

gene knocked down | dsRNA | infection score, replicate 1 | infection score, replicate 2 | cell count, replicate 1 | cell count, replicate 2
CG3520 | DRSC04383 | 14.7 | 14.9 | 5822 | 6172
CG6592 | DRSC10669 | 1.4 | 4.57 | 6004 | 5970
CG17154 | DRSC10253 | 1.93 | 1.58 | 5970 | 6843
nrv1 | DRSC03382 | 11.2 | 7.85 | 5481 | 5619
CG14406 | DRSC19592 | 12.6 | 17 | 6391 | 6504
Npc2a | DRSC00698 | 10.2 | 7.65 | 6847 | 7031
Sas-4 | DRSC12505 | 4.1 | 2.48 | 6609 | 6440
zfh2 | DRSC17178 | 1.08 | 3.07 | 6403 | 6516
zfh2 | DRSC28010 | – | 3.03 | 416 | 6876
mthl2 | DRSC10287 | 1.97 | 23.1 | 6043 | 5507
mthl2 | DRSC27003 | 7.35 | 1.86 | 6789 | 6663
Sgs3 | DRSC11280 | 4.04 | 3.73 | 5920 | 5578
Sgs3 | DRSC28210 | 18.5 | 14.7 | 1457 | 4900
Fitm | DRSC09772 | 5.57 | 6.8 | 6443 | 6542
Fitm | DRSC28750 | – | 0.63 | – | 634
Cpr49Ag | DRSC07203 | 6.6 | 16.3 | 6474 | 5904
Cpr49Ag | DRSC28612 | 12.5 | 0.89 | 2261 | 448
CG18810 | DRSC02701 | 5.13 | 4.65 | 6415 | 7249
CG3368 | DRSC15485 | 5.19 | 3.69 | 6860 | 6635
SNCF | DRSC10115 | 2.59 | 2.85 | 6098 | 5891
Ubqn | DRSC19581 | 13.4 | 4.87 | 3492 | 4144
Ubqn | DRSC24055 | 1.64 | 3.38 | 2736 | 2784
CG14752 | DRSC06488 | 6.2 | 4.61 | 6357 | 6681
sli | DRSC07684 | 9.94 | 15.6 | 6536 | 5775
sli | DRSC29578 | 2.28 | 3.7 | 570 | 1028
CG34353 | DRSC14493 | 5.23 | – | 5261 | 304
CG34353 | DRSC14517 | 13.2 | – | 6174 | 335
CG34353 | DRSC14563 | – | 1.04 | 323 | 865
CG34353 | DRSC15837 | 8.74 | 15.5 | 3868 | 3423
CG34353 | DRSC22429 | 1.15 | 2.64 | 5905 | 6521
CG34353 | DRSC27095 | – | 13.5 | – | 6476
CG34353 | DRSC30113 | 3.64 | 7.29 | 6795 | 6323
RpLP0-like | DRSC06424 | 20.2 | 19.2 | 5981 | 6566
RpLP0-like | DRSC28206 | 6.77 | – | 1832 | 506
CG15865 | DRSC19733 | 3.16 | 8.61 | 6776 | 6402
CG14589 | DRSC04866 | 9.92 | 10.8 | 5956 | 6926
CG32628 (retired record) | DRSC19405 | 15.1 | 14.8 | 5910 | 6014
CG7294 | DRSC03041 | 2.79 | 1.59 | 6421 | 6684
CG7294 | DRSC25336 | 5.68 | 5.93 | 5793 | 6378
CG5039 | DRSC15703 | 16.2 | 13.2 | 5529 | 5910
CG5039 | DRSC27367 | 35.8 | 27.5 | 5524 | 5896
ppk6 | DRSC06062 | 3.29 | 1.93 | 6056 | 6364
ppk6 | DRSC29267 | 9.7 | 14 | 6185 | 5915
CG9083 | DRSC04625 | 23 | 22.8 | 4979 | 5268
CG9083 | DRSC25523 | 2.64 | 1.77 | 5304 | 4912
CG7126 | DRSC16201 | 1.65 | 11.2 | 6983 | 5448
CG7126 | DRSC25839 | 2.83 | 0.29 | 6190 | 6153
Hs6st | DRSC14348 | 1.69 | 8.1 | 531 | 5125
Hs6st | DRSC15182 | 7.93 | 0.8 | 5675 | 5768
Hs6st | DRSC15581 | 9.91 | 7.32 | 6451 | 6663
Hs6st | DRSC21732 | 31.5 | 11.9 | 2191 | 969
Jon25Bi | DRSC03434 | 1.74 | 5.34 | 5905 | 6426
Jon25Bi | DRSC25181 | 4.98 | 3.43 | 5524 | 5604
CG7906 | DRSC10928 | 5.03 | 11.3 | 6100 | 5280
CG7906 | DRSC29526 | 12.3 | 22.4 | 4299 | 4417
qless | DRSC15103 | 7.62 | 3 | 6546 | 6669
qless | DRSC15507 | 9.48 | 5.58 | 6174 | 6089
CG16813 | DRSC24977 | 2.74 | 9.71 | 5510 | 6158
N | DRSC18685 | 1.09 | 7 | 6173 | 5700
l(3)mbn | DRSC08793 | 4.62 | 0.71 | 4853 | 845
cpb | DRSC00809 | 1.95 | 1.57 | 5280 | 5543
cpb | DRSC29870 | 13.2 | 24.9 | 1219 | 5705
CG5916 | DRSC15917 | 19.3 | 14.8 | 6511 | 6426
Or49b | DRSC07494 | 9.25 | 12.2 | 6779 | 6818
Tim23 | DRSC21240 | 16.3 | 11.8 | 6115 | 5837
CG14102 | DRSC10103 | 3.1 | 3.51 | 6893 | 6525
CG3663 | DRSC04402 | 27.9 | 8.27 | 6314 | 2562
CG3663 | DRSC27007 | 5.32 | 18.1 | 7029 | 6205
CG13458 | DRSC10005 | 7.44 | 4.44 | 6211 | 6821
CG13458 | DRSC24392 | 8.35 | 9.49 | 6766 | 6499
CG17778 | DRSC18504 | 1.43 | 19.1 | 6436 | 4632
CG31886 | DRSC03248 | 33 | 6.27 | 5667 | 6009
CG31886 | DRSC27420 | 8.82 | 9.51 | 6948 | 6507
haf | DRSC00381 | 1.87 | 3.24 | 6640 | 5712

An excerpt taken from the entries so far, for reference:
gene knocked down | dsRNA | infection score, replicate 1 | infection score, replicate 2 | cell count, replicate 1 | cell count, replicate 2
CG17154 | DRSC10253 | 1.93 | 1.58 | 5970 | 6843
nrv1 | DRSC03382 | 11.2 | 7.85 | 5481 | 5619
CG14406 | DRSC19592 | 12.6 | 17 | 6391 | 6504
Npc2a | DRSC00698 | 10.2 | 7.65 | 6847 | 7031
Sas-4 | DRSC12505 | 4.1 | 2.48 | 6609 | 6440
zfh2 | DRSC17178 | 1.08 | 3.07 | 6403 | 6516
zfh2 | DRSC28010 | – | 3.03 | 416 | 6876
mthl2 | DRSC10287 | 1.97 | 23.1 | 6043 | 5507
